Compound potency records, mixed from different reports. Data source: NIAID ChemDB in PubChem.

Common to all: whole-cell or culture tests; species: HIV-1; measure: inhibition

Conditions beyond the fields shown may differ between rows. Blank or dashed fields: not listed here. Percent inhibition refers to the dose given; in toxicity tests it is the harm to the cells.

COC(=O)C1=C(C)N(c2ccc(C(=O)O)cc2)C(C)=C(C(=O)OC)C1c1cccs1 ; strain: NL4-3 ; cells: HEK293T + MT-2 ; read by: p24 / ELISA ; tested at: 100 µM ; result: 76.42%
N=C1Sc2ccccc2C2=NCCCN12 ; strain: 92HT599 ; cells: PBMC ; read by: β-galactosidase ; tested at: 1.92 µM ; result: 90%
CCN(CC)C(=O)OCC1CN(C(=O)c2ccncc2)CCN1C(=O)c1ccncc1 ; strain: BaL ; cells: MDM ; read by: RT activity ; tested at: 100 µM ; result: 35%
C=C(C)[C@@H]1CC[C@]2(C(=O)NCCCCCCCC(=O)N[C@@H](CC(C)C)[C@@H](O)CC(=O)O)CC[C@]3(C)[C@H](CC[C@@H]4[C@@]5(C)CC[C@H](O)C(C)(C)[C@@H]5CC[C@]43C)[C@@H]12 ; strain: LAI-R(GP41-I84S) ; changes: I84S ; cells: HeLa P4 + HeLa ; read by: p24 ; tested at: 10 µM ; result: 30%
O=C(C(=O)N1CCN(C(=O)c2cccc(S)c2)CC1)c1c[nH]c2cccc(Cl)c12 ; cells: HeLa + HELA CD4+/CCR5 ; read by: luciferase ; tested at: 10 µM ; result: >98%
CC(C)[C@H](NC(=O)[C@H](CO)NC(=O)[C@@H](N)CSSCC(=O)O)C(=O)N[C@H](C(=O)N[C@@H](CSSCC(=O)O)C(=O)NCC(=O)O)[C@@H](C)O ; strain: IIIB ; cells: PBMC(PHA STIM.) + PBMC ; read by: p24 ; tested at: 0.132 µM ; result: 58%
C[C@@H]1CN(C(=O)c2ccccc2)CCN1C(=O)C(=O)c1c[nH]c2c(Br)ccc(F)c12 ; cells: HeLa + HELA CD4+/CCR5 ; read by: luciferase ; tested at: 10 µM ; result: >98%
c1ccc2c(-c3ccc(-c4ccc(-c5ccc(-c6cccc7ccccc67)s5)c5ccccc45)s3)cccc2c1 ; strain: IIIB ; cells: C8166 ; read by: p24 / ELISA / antigen ; tested at: 4 µM ; result: 65.38%
CCCOC(=O)N1c2ccc3ccccc3c2C=CC1C#N ; strain: IIIB ; cells: MOLT-3 ; read by: syncytia ; tested at: 50 µM ; result: 74.3%
O=C(CCCCCCCCCCC(=O)Nc1cc(S(=O)(=O)O)cc2cc(S(=O)(=O)O)cc(O)c12)Nc1cc(S(=O)(=O)O)cc2cc(S(=O)(=O)O)cc(O)c12 ; cells: MOLT-3 ; read by: syncytia ; tested at: 20 µg/mL ; result: 82%
Cc1ccc(F)c2c(C(=O)C(=O)N3CCN(C(=O)c4ccccc4)C[C@H]3C)c[nH]c12 ; cells: HeLa + HELA CD4+/CCR5 ; read by: luciferase ; tested at: 10 µM ; result: >98%
CCOC(=O)c1cc2n(c1-c1ccc(F)cc1)CCC2 ; strain: IIIB ; cells: PBL ; read by: p24 / ELISA ; tested at: 10 µM ; result: 86%
CC(C)(C)OC(=O)Nc1ccccc1C(=O)N1CCN(C(=O)C(=O)c2c[nH]c3cccc(F)c23)CC1 ; cells: HeLa + HELA CD4+/CCR5 ; read by: luciferase ; tested at: 10 µM ; result: 51%
CC1(C)OC(=O)C2(C(=O)O1)[C@@H](c1ccccc1)CC(=O)C[C@H]2[C@H]1COC(C)(C)O1 ; strain: NL4-3 ; cells: SupT1 ; read by: MTT ; tested at: 0.0001 µM ; result: >40%
COc1cccc2[nH]cc(C(=O)C(=O)N3CCN(C(=O)c4ccccc4)C[C@@H]3C)c12 ; cells: HeLa + HELA CD4+/CCR5 ; read by: luciferase ; tested at: 10 µM ; result: >98%
Clc1cccc(Cl)c1C1SCc2nc3cc4ccccc4cc3n21 ; strain: RF ; cells: CEM + CEM-SS ; tested at: 200 µM ; result: 21.86%
CCCCCCCCCCCCCCCC(=O)NCC1CC(OP(=O)(O)OCC2OC(n3cnc4c(N)ncnc43)C(OP(=O)(O)OCC3OC(n4cnc5c(N)ncnc54)C(O)C3O)C2O)C(n2cnc3c(N)ncnc32)O1 ; strain: IIIB ; cells: SupT1 + Sup-T1 ; read by: syncytia ; tested at: 100 µM ; result: 81%
C[C@@H]1CN(C(=O)c2ccccc2)CCN1C(=O)C(=O)c1c[nH]c2c(F)ccc(F)c12 ; cells: HeLa + HELA CD4+/CCR5 ; read by: luciferase ; tested at: 10 µM ; result: >98%
CCN(CC)C(=O)OCC1CN(C(=S)c2cc(OC)c(OC)c(OC)c2)CCN1C(=S)c1cc(OC)c(OC)c(OC)c1 ; strain: BaL ; cells: MDM ; read by: RT activity ; tested at: 10 µM ; result: 76%
NC(N)=NCCNS(=O)(=O)c1cccc2cnccc12 ; strain: LAI ; tested at: 16.7 µM ; result: 2%
Fc1cccc(C2SCc3nc4cc5ccccc5cc4n32)c1 ; strain: RF ; cells: CEM + CEM-SS ; tested at: 200 µM ; result: 18.5%
COC(=O)c1c(C(=O)OC)c(C)n(-c2ccccc2)c1C ; strain: IIIB ; cells: PBL ; read by: p24 / ELISA ; tested at: 10 µM ; result: 0%
COC(=O)C1=C(C)N(c2ccc(C(=O)O)cc2)C(C)=C(C(=O)OC)C1c1ccc(N(C)C)cc1 ; strain: NL4-3 ; cells: HEK293T + MT-2 ; read by: p24 / ELISA ; tested at: 100 µM ; result: 47.5%
C=C(C)OC(=O)N1c2ccc3ccccc3c2C=CC1C#N ; strain: IIIB ; cells: MOLT-3 ; read by: syncytia ; tested at: 50 µM ; result: 40%
CNCCNS(=O)(=O)c1cccc2cnccc12 ; strain: LAI ; tested at: 16.7 µM ; result: 24.9%
CC(C)(C)NC(=O)[C@@H]1CCCN1C(=O)[C@@H](O)[C@H](Cc1ccccc1)NC(=O)[C@H](CC(N)=O)NC(=O)OCc1ccccc1 ; strain: pNL432 ; cells: MOLT-4 ; read by: RT activity ; tested at: 20 µM ; result: 75%
COc1ccc(F)c2c(C(=O)C(=O)N3CCN(C(=O)c4ccccc4)CC3)c[nH]c12 ; cells: HeLa + HELA CD4+/CCR5 ; read by: luciferase ; tested at: 10 µM ; result: >98%
CCCCCCCCCCCCCCCC(=O)NCC1OC(n2cnc3c(N)ncnc32)C(OP(=O)(O)OCC2CC(OP(=O)(O)OCC3OC(n4cnc5c(N)ncnc54)C(O)C3O)C(n3cnc4c(N)ncnc43)O2)C1O ; strain: IIIB ; cells: SupT1 + Sup-T1 ; read by: syncytia ; tested at: 100 µM ; result: 100%
O=S(=O)(O)c1ccc(-c2c3nc(c(-c4ccc(S(=O)(=O)O)cc4)c4ccc([nH]4)c(-c4ccc(S(=O)(=O)O)cc4)c4nc(c(-c5ccccc5)c5ccc2[nH]5)C=C4)C=C3)cc1 ; strain: IIIB ; cells: MAGI ; read by: β-galactosidase ; tested at: 50 µg/mL ; result: 81%
O=CN(/C=C/c1ccc(Cl)cc1)CCNS(=O)(=O)c1cccc2cnccc12 ; strain: LAI ; tested at: 16.7 µM ; result: 3%
Cc1ccc(-c2ccc3c(c2)C=C(C(=O)Nc2ccc(C[N+](C)(C)C4CCOCC4)cc2)CCC3)cc1 ; strain: COT6 CLADE C ; cells: PBMC ; read by: p24 ; tested at: 1 µM ; result: 32.9%
Fc1cccc(F)c1C1SCc2nc3cc4ccccc4cc3n21 ; strain: RF ; cells: CEM + CEM-SS ; tested at: 0.63 µM ; result: 4.49%
CCn1c(C)c(C(=O)NC)c(C(=O)NC)c1Cc1ccccc1 ; strain: IIIB ; cells: PBL ; read by: p24 / ELISA ; tested at: 10 µM ; result: 0%
O=S(=O)(O)c1c2ccccc2c(-c2c3nc(c(-c4c5ccccc5c(S(=O)(=O)O)c5ccccc45)c4ccc([nH]4)c(-c4c5ccccc5c(S(=O)(=O)O)c5ccccc45)c4nc(c(-c5c6ccccc6c(S(=O)(=O)O)c6ccccc56)c5ccc2[nH]5)C=C4)C=C3)c2ccccc12 ; strain: IIIB ; cells: MAGI ; read by: β-galactosidase ; tested at: 5 µg/mL ; result: 70%
CCOC(=O)c1[nH]c(C)c(C(=O)O)c1C ; strain: IIIB ; cells: PBL ; read by: p24 / ELISA ; tested at: 10 µM ; result: 0%
Nc1cc(S(=O)(=O)O)c2ccccc2c1N ; cells: MOLT-3 ; read by: syncytia ; tested at: 10 µg/mL ; result: 62%
Nc1ccn([C@H]2C=C[C@@H](CO)O2)c(=O)n1 ; strain: LAV ; cells: MT-2 ; read by: cytopathic effect / trypan blue ; tested at: 1 µM ; result: 99.5%
CC(C)[C@H](NC(=O)[C@H](CO)NC(=O)[C@H](CS)NC(=O)CCC(=O)NCCCOCCOCCCN)C(=O)N[C@H](C(=O)N[C@@H](CS)C(=O)NCC(=O)O)[C@@H](C)O ; strain: BaL ; cells: PBMC(PHA STIM.) + PBMC ; read by: p24 ; tested at: 0.132 µM ; result: 6%
N#CC1C=Cc2c(ccc3ccccc23)N1C(=O)Oc1ccccc1 ; strain: IIIB ; cells: MOLT-3 ; read by: syncytia ; tested at: 50 µM ; result: 0%
COC(=O)C1=C(C)N(c2ccc(C(=O)O)cc2)C(C)=C(C(=O)OC)C1c1ccco1 ; strain: NL4-3 ; cells: HEK293T + MT-2 ; read by: p24 / ELISA ; tested at: 100 µM ; result: 84%
NS(=O)(=O)c1ccc(NC(=O)c2ccccc2SSc2ccccc2C(=O)Nc2ccc(S(N)(=O)=O)cc2)cc1 ; strain: RF ; cells: CEM + CEM-SS ; read by: p24 ; tested at: 25 µM ; result: 80%
CCN(CC)C(=O)OCC1CN(C(C#N)(c2ccccc2)c2ccccc2)CCN1C(=O)c1cc(OC)c(OC)c(OC)c1 ; strain: BaL ; cells: MDM ; read by: RT activity ; tested at: 10 µM ; result: 44%
CC1CN(S(=O)(=O)c2cccc3cnccc23)CCN1 ; strain: LAI ; tested at: 16.7 µM ; result: 8.3%
CCN(CC)C(=O)OCC1CN(C(c2ccccc2)c2ccccn2)CCN1C(=O)c1cc(OC)c(OC)c(OC)c1 ; strain: BaL ; cells: MDM ; read by: RT activity ; tested at: 10 µM ; result: 27%
CCCCOC(=O)N1c2ccc3ccccc3c2C=CC1C#N ; strain: IIIB ; cells: MOLT-3 ; read by: syncytia ; tested at: 50 µM ; result: 49.5%
COC(=O)c1cn2c(c1C(=O)OC)Cc1ccccc1C2 ; strain: IIIB ; cells: PBL ; read by: p24 / ELISA ; tested at: 10 µM ; result: 1%
NCCS ; strain: IIIB ; cells: C8166 ; read by: cytopathic effect / MTT ; tested at: 200 µM ; result: 100%
O=C(C(=O)N1CCN(C(=O)c2cccc(S)c2)CC1)c1c[nH]c2cccc(F)c12 ; cells: HeLa + HELA CD4+/CCR5 ; read by: luciferase ; tested at: 10 µM ; result: >98%

Repeating the final 3 entries:

| compound | strain | changes | cells | read by | tested at | result |
|---|---|---|---|---|---|---|
| COC(=O)c1cn2c(c1C(=O)OC)Cc1ccccc1C2 | IIIB | - | PBL | p24 / ELISA | 10 µM | 1% |
| NCCS | IIIB | - | C8166 | cytopathic effect / MTT | 200 µM | 100% |
| O=C(C(=O)N1CCN(C(=O)c2cccc(S)c2)CC1)c1c[nH]c2cccc(F)c12 | - | - | HeLa + HELA CD4+/CCR5 | luciferase | 10 µM | >98% |